Anti-infective test results gathered from many reports (values: NIAID ChemDB through PubChem).

Shared fields: whole-cell or culture tests; organism: Bovine viral diarrhea virus; measure: EC50

An empty or dashed field is not shown.

structure	strain	cells	method	result
NC(=O)c1ncn([C@@H]2O[C@H](CO)[C@@H](O)[C@H]2O)n1	-	VERO	cytopathic effect	5 µg/mL
CCCCCCCCCN1C[C@H](O)[C@@H](O)[C@H](O)[C@H]1CO	-	MDBK	cytopathic effect	>100 µM
CCCCN1C[C@H](O)[C@@H](O)[C@H](O)[C@H]1CO	-	MDBK	cytopathic effect	>300 µM
NC(=O)c1ncn([C@@H]2O[C@H](CO)[C@@H](O)[C@H]2O)n1	-	MDBK	plaque count	9.1 µM
C[C@H]1[C@@H](OC(=O)CCC(=O)O)O[C@@H]2O[C@@]3(C)CC[C@H]4[C@H](C)CC[C@@H]1[C@@]24OO3	PE515	MDBK	MTS	0.07 µg/mL
CCC(C)CCC[C@H](C)CCN1C[C@H](O)[C@@H](O)[C@H](O)[C@H]1CO	-	MDBK	plaque count	12 µM
NC(=O)c1ncn([C@@H]2O[C@H](CO)[C@@H](O)[C@H]2O)n1	-	MDBK	plaque count	1.1 µM
CC(C)(C)CCCCCCCN1C[C@H](O)[C@@H](O)[C@H](O)[C@H]1CO	-	MDBK	plaque count	30 µM
C[C@H]1[C@@H](O)O[C@@H]2OC3(C)CC[C@H]4[C@H](C)CC[C@@H]1[C@@]24OO3	PE515	MDBK	MTS	0.05 µg/mL
CCCCN1C[C@H](O)[C@@H](O)[C@H](O)[C@H]1CO	-	MDBK	plaque count	125–200 µM
COc1cc(O)c(CC=C(C)C)c(O)c1C(=O)/C=C/c1ccc(O)cc1	NADL	MDBK	cytopathic effect	1.7 µg/mL
OC[C@@H]1[C@@H](O)[C@H](O)[C@@H](O)CN1CCCCCCCCCCN1C[C@H](O)[C@@H](O)[C@H](O)[C@H]1CO	-	MDBK	plaque count	25 µM
CCCCN1C[C@H](O)[C@@H](O)[C@H](O)[C@H]1CO	-	MDBK	plaque count	>250 µM
CCCCCCCCCN1C[C@H](O)[C@@H](O)[C@H](O)[C@H]1CO	-	MDBK	plaque count	6 µM
O[C@H]1[C@H](O)[C@@H](O)CN2CC[C@H](O)[C@H]12	-	MDBK	plaque count	216.6 µM

A second listing of 2 rows from above:

structure | strain | cells | method | result
C[C@H]1[C@@H](OC(=O)CCC(=O)O)O[C@@H]2O[C@@]3(C)CC[C@H]4[C@H](C)CC[C@@H]1[C@@]24OO3 | PE515 | MDBK | MTS | 0.07 µg/mL
NC(=O)c1ncn([C@@H]2O[C@H](CO)[C@@H](O)[C@H]2O)n1 | - | MDBK | plaque count | 9.1 µM

a–b is a range or a potency band. Neighbouring rows are from separate reports. ECn is the concentration giving n% inhibition of infection, replication or growth.